The record followed here is PMC3562317.

What all share (experiment): purified protein
Settings in all cases: pH 7.0; 37.0 °C

Series [1] deals with CCCCCCCC(=O)Oc1ccc([N+](=O)[O-])cc1.
Series [2] relates to CCCCCC(=O)Oc1ccc([N+](=O)[O-])cc1.
Series [3] relates to CCCC(=O)Oc1ccc([N+](=O)[O-])cc1.

Usually Km stands for the concentration of substrate that gives half-maximal velocity. The kcat/Km is the turnover number divided by the Michaelis constant. As for “Rv1430 (PE16), full-length (Mycobacterium tuberculosis H37Rv)”, the Km in series [1] amounted to 10 mM; in series [2], 5.15 mM; in series [3] it was 5.2 mM. Moreover, the values for the specificity constant (kcat/Km) in series [1], in series [2] and in series [3] were 30500 M⁻¹ s⁻¹, 104000 M⁻¹ s⁻¹ and 65500 M⁻¹ s⁻¹, respectively.

As to “PE-PPE domain of Rv1430 (Mycobacterium tuberculosis H37Rv)”, the values for the Michaelis-Menten constant (Km) in series [1], in series [2] and in series [3] were 5.6 mM, 4.2 mM and 4.5 mM, respectively. Moreover, the kcat/Km in series [1] worked out at 17600 M⁻¹ s⁻¹; in series [2] it was 59200 M⁻¹ s⁻¹; in series [3], 40400 M⁻¹ s⁻¹.
